Data from US5559025A (priority 1991, dated 1996).

The chains behind the UniProt entries cited, without tags or fusion partners. Residues count along the entry.
UniProt P04936, 851-992 limits assumed: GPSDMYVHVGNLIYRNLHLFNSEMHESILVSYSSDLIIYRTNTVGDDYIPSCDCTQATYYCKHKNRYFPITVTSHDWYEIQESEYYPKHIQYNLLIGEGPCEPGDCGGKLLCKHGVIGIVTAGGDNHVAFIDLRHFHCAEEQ

Target: HRV2 2A proteinase (Human rhinovirus 2, UniProt P04936)
Experiment: Trans-cleavage assay: effect of known proteinase inhibitors and reducing agents on cleaving of peptide P89
Assay type: biochemical
Conditions: inhibitor added before start of reaction; repeated three times

O=S(=O)(F)Cc1ccccc1
effect on the activity of 2A relative to peptide P89: only effective at higher concentrations
